The EC50 (read off the curve) is the concentration giving half of the maximal effect.

Assay [1] concerns the target SARS-CoV-2 BA.1 recombinant spike (hexapro) (SARS-CoV-2). In words: ELISA, coated spike, mAb titrated. (In an ELISA, binding on a coated surface is turned into a signal by an enzyme label.)
The target of assay [2] is SARS-CoV-2 XBB1.5 recombinant spike (hexapro) (SARS-CoV-2). Description: ELISA, coated spike, mAb titrated.

B1: DH1498 (antibody, V domains shown)
VH: QVQLQESGPGLVKPSETLSLTCAVSGGSVSSDTYYWSWIRQPPGKGLEWIGYIYNSGSTNYNPSLKSRVTISVDTSKSQFSLNLGSVTAADTAVYYCAREGAGTYPPKNDAFDIWGQGTLVTVSS
VL: EIVLTQSPDSLAVSLGERATINCKSSQSVLFSSDNKNYLAWYQQKPGQPPKLLIYWASTRESGVPDRFSGSGSGTDFTLTISSLQAEDVAVYYCQQYYNSPRTFGQGTKVEIK
On to B1, for which the “EC50 (read off the curve)” value in assay [1] and in assay [2] was about 0.02 µg/mL each time.

The record behind these values is patent US20240285753A1 (DUKE UNIVERSITY, published 2024).
